# Reference: patent US20160304570A1, “Potent and selective inhibitors of nav1.3 and nav1.7” (published 2016)
# Target: human voltage-gated sodium channel Nav1.3 (human), Q9NY46
# Test: cell-based or functional assay
Binder,"IWQ Use Nav1.3 (µM) (IC50, IonWorks Quattro population patch clamp)","IWQ Use Nav1.3 (µM); IC50 of peak inward current, IonWorks Quattro",Nav1.3 Use IC50 (PatchXpress whole cell patch clamp),"IC50, IWQ Use Nav1.3"
DCLGFMRKCIPDNDKCCRPNLVCSRTHKWCKY (modifications not checked) [GpTx-1(1-32)],0.88 µM,,,
DCLGFMRKCIPDNDKCCRPNLVCSRTHKWCKYV (modifications not checked) [GpTx-1(1-33)],1.3 µM,,,
DCLGFMRKCIPDNDKCCRPNLVCSRTHKWCKYVFA (modifications not checked) [GpTx-1(1-34)-Ala],0.26 µM,,,
DCLGFMRKCIPDNDKCCRPNLVCSRTHKWCKKVFW (modifications not checked) [[Lys32]GpTx-1(1-34)-Trp],,0.7 µM,,
DCLGFMRKCIPDNDKCCRPNLVCSRTHKWCKYVFW (modifications not checked) [GpTx-1(1-34)-Trp-FreeAcid],0.11 µM,,,
DCLGFMRKCIPDNDKCCRPNLVCSRTHKWCKYVFE (modifications not checked) [GpTx-1(1-34)-Glu],2.47 µM,,,
DCLGFMRKCIPDNDKCCRPNLVCSRTHKWCKYVFW (modifications not checked) [GpTx-1(1-34)-Trp],0.07 µM,,0.015 µM,
DCLGFMRKCIPDNDKCCRPNLVCSRTHKWCKYVFR (modifications not checked) [GpTx-1(1-34)-Arg],0.1 µM,,,
DCLGFMRKCIPDNDKCCRPNLVCSRTHKWCK (modifications not checked) [GpTx-1(1-31)],9.09 µM,,,
DCLGFMRKCIPDNDKCCEGLVCSRTHKWCKYVF (modifications not checked) [[Glu18;desAsn20]GpTx-1(1-34)],,0.51 µM,,
DCLGAFRKCDPDNDKCCRPNLVCSRTHKWCKYVF (modifications not checked) [[Ala5;Phe6;Asp10]GpTx-1(1-34)],,0.37 µM,,
DCLGALRKCIPDNDKCCRPNLVCSRTHEWCKYVF (modifications not checked) [[Ala5;Leu6;Glu28]GpTx-1(1-34)],6.6 µM,,,
"DCLGALRKCIPDNDKCCRPNLVCSATHKWCKYVF (modifications not checked) [[Ala5,25;Leu6]GpTx-1(1-34)]",2.8 µM,,,
DCLGAFRKCEPDNDKCCRPNLVCSRTHKWCKYVF (modifications not checked) [[Ala5;Phe6;Glu10]GpTx-1(1-34)],0.32 µM,,,
DCLGGFRKCEPDNDKCCRPNLVCSRTHKWCKYVF (modifications not checked) [[Gly5;Phe6;Glu10]GpTx-1(1-34)],,,,0.33 µM
DCLGAFRKCIPDNDKCCRPNLVCSETHKWCKYVF (modifications not checked) [[Ala5;Phe6;Glu25]GpTx-1(1-34)],,,,3.6 µM

# Target: human voltage-gated sodium channel Nav1.5 (human), Q14524
# Test: cell-based or functional assay
Binder,"IWQ Use Nav1.5 (µM) (IC50, IonWorks Quattro population patch clamp)","IWQ Use Nav1.5 (µM); IC50 of peak inward current, IonWorks Quattro",Nav1.5 Use IC50 (PatchXpress whole cell patch clamp),"Nav1.5 Use IC50 (µM), PatchXpress electrophysiology","IC50, IWQ Use Nav1.5"
DCLGFMRKCIPDNDKCCRPNLVCSRTHKWCKY (modifications not checked) [GpTx-1(1-32)],8.64 µM,,,,
DCLGFMRKCIPDNDKCCRPNLVCSRTHKWCKYV (modifications not checked) [GpTx-1(1-33)],10.8 µM,,,,
DCLGFMRKCIPDNDKCCRPNLVCSRTHKWCKYVFA (modifications not checked) [GpTx-1(1-34)-Ala],14.2 µM,,,,
DCLGFMRKCIPDNDKCCRPNLVCSRTHKWCKKVFW (modifications not checked) [[Lys32]GpTx-1(1-34)-Trp],,18.9 µM,,,
DCLGFMRKCIPDNDKCCRPNLVCSRTHKWCKYVFW (modifications not checked) [GpTx-1(1-34)-Trp-FreeAcid],8.28 µM,,,,
DCLGFMRKCIPDNDKCCRPNLVCSRTHKWCKYVFE (modifications not checked) [GpTx-1(1-34)-Glu],19.6 µM,,,,
DCLGFMRKCIPDNDKCCRPNLVCSRTHKWCKYVFW (modifications not checked) [GpTx-1(1-34)-Trp],7.87 µM,,2.66 µM,,
DCLGFMRKCIPDNDKCCRPNLVCSRTHKWCKYVFR (modifications not checked) [GpTx-1(1-34)-Arg],9.73 µM,,,,
DCLGFMRKCIPDNDKCCRPNLVCSRTHKWCK (modifications not checked) [GpTx-1(1-31)],11.9 µM,,,,
DCLGFMRKCIPDNDKCCEGLVCSRTHKWCKYVF (modifications not checked) [[Glu18;desAsn20]GpTx-1(1-34)],,11.5 µM,,,
DCLGAFRKCDPDNDKCCRPNLVCSRTHKWCKYVF (modifications not checked) [[Ala5;Phe6;Asp10]GpTx-1(1-34)],,43 µM,,> 10 µM,
DCLGALRKCIPDNDKCCRPNLVCSRTHEWCKYVF (modifications not checked) [[Ala5;Leu6;Glu28]GpTx-1(1-34)],43 µM,,,,
"DCLGALRKCIPDNDKCCRPNLVCSATHKWCKYVF (modifications not checked) [[Ala5,25;Leu6]GpTx-1(1-34)]",38 µM,,,,
DCLGAFRKCEPDNDKCCRPNLVCSRTHKWCKYVF (modifications not checked) [[Ala5;Phe6;Glu10]GpTx-1(1-34)],36 µM,,,> 10 µM,
DCLGGFRKCEPDNDKCCRPNLVCSRTHKWCKYVF (modifications not checked) [[Gly5;Phe6;Glu10]GpTx-1(1-34)],,,,,34.2 µM
DCLGAFRKCIPDNDKCCRPNLVCSETHKWCKYVF (modifications not checked) [[Ala5;Phe6;Glu25]GpTx-1(1-34)],,,,,41 µM

# Target: human voltage-gated sodium channel Nav1.7 (human), Q15858
# Test: cell-based or functional assay
Binder,"IWQ Use Nav1.7 (µM) (IC50, IonWorks Quattro population patch clamp)","IWQ Use Nav1.7 (µM); IC50 of peak inward current, IonWorks Quattro",Nav1.7 Use IC50 (PatchXpress whole cell patch clamp),"Nav1.7 Use IC50 (µM), PatchXpress electrophysiology","IC50, IWQ Use Nav1.7","Nav1.7/Nav1.3 (ratio of IWQ Use IC50, Nav1.7 against Nav1.3)"
DCLGFMRKCIPDNDKCCRPNLVCSRTHKWCKY (modifications not checked) [GpTx-1(1-32)],1.5 µM,,,,,
DCLGFMRKCIPDNDKCCRPNLVCSRTHKWCKYV (modifications not checked) [GpTx-1(1-33)],2.35 µM,,,,,
DCLGFMRKCIPDNDKCCRPNLVCSRTHKWCKYVFA (modifications not checked) [GpTx-1(1-34)-Ala],0.41 µM,,,,,
DCLGFMRKCIPDNDKCCRPNLVCSRTHKWCKKVFW (modifications not checked) [[Lys32]GpTx-1(1-34)-Trp],,0.73 µM,,,,
DCLGFMRKCIPDNDKCCRPNLVCSRTHKWCKYVFW (modifications not checked) [GpTx-1(1-34)-Trp-FreeAcid],0.48 µM,,,,,
DCLGFMRKCIPDNDKCCRPNLVCSRTHKWCKYVFE (modifications not checked) [GpTx-1(1-34)-Glu],4.47 µM,,,,,
DCLGFMRKCIPDNDKCCRPNLVCSRTHKWCKYVFW (modifications not checked) [GpTx-1(1-34)-Trp],0.05 µM,,0.009 µM,,,
DCLGFMRKCIPDNDKCCRPNLVCSRTHKWCKYVFR (modifications not checked) [GpTx-1(1-34)-Arg],0.3 µM,,,,,
DCLGFMRKCIPDNDKCCRPNLVCSRTHKWCK (modifications not checked) [GpTx-1(1-31)],18.3 µM,,,,,
DCLGFMRKCIPDNDKCCEGLVCSRTHKWCKYVF (modifications not checked) [[Glu18;desAsn20]GpTx-1(1-34)],,0.89 µM,,,,
DCLGAFRKCDPDNDKCCRPNLVCSRTHKWCKYVF (modifications not checked) [[Ala5;Phe6;Asp10]GpTx-1(1-34)],,0.72 µM,,0.04 µM,,
DCLGALRKCIPDNDKCCRPNLVCSRTHEWCKYVF (modifications not checked) [[Ala5;Leu6;Glu28]GpTx-1(1-34)],1.6 µM,,,,,
"DCLGALRKCIPDNDKCCRPNLVCSATHKWCKYVF (modifications not checked) [[Ala5,25;Leu6]GpTx-1(1-34)]",0.6 µM,,,,,
DCLGAFRKCEPDNDKCCRPNLVCSRTHKWCKYVF (modifications not checked) [[Ala5;Phe6;Glu10]GpTx-1(1-34)],0.38 µM,,,0.079 µM,,
DCLGGFRKCEPDNDKCCRPNLVCSRTHKWCKYVF (modifications not checked) [[Gly5;Phe6;Glu10]GpTx-1(1-34)],,,,,0.35 µM,1.1 fold
DCLGAFRKCIPDNDKCCRPNLVCSETHKWCKYVF (modifications not checked) [[Ala5;Phe6;Glu25]GpTx-1(1-34)],,,,,1.5 µM,
